Holding throughout (type): functional
Assay [1] addresses Solute carrier family 2, facilitated glucose transporter member 1 (Homo sapiens) (UniProt P11166). As to the kind of experiment: ST_JUDE_LEISH: Cytotoxicity at 2uM final concentration against transgenic Leishmania Mexicana promastigotes LmGLUT1 that are glucose transport deficient and complemented with the human glucose transporter GLUT1. Activity is measured by DNA content using SYBR green in vitro.

By UniProt entry, the sequences of proteins in these tests, tags left out. Residues count along the entry.
UniProt P11166, whole entry: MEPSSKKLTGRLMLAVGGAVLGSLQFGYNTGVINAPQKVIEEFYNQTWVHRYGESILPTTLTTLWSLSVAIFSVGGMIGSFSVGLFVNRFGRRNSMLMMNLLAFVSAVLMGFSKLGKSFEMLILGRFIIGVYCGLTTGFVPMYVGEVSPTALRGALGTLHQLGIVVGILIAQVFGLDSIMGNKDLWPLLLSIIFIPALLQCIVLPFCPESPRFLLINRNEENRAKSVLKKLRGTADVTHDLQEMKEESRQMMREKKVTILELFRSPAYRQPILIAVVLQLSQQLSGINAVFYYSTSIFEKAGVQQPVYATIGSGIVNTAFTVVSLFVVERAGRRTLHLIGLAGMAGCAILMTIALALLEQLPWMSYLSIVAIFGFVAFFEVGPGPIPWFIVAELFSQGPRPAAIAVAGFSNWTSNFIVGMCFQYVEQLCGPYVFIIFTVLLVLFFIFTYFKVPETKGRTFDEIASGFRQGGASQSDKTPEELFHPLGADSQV
UniProt O97467, 1-504: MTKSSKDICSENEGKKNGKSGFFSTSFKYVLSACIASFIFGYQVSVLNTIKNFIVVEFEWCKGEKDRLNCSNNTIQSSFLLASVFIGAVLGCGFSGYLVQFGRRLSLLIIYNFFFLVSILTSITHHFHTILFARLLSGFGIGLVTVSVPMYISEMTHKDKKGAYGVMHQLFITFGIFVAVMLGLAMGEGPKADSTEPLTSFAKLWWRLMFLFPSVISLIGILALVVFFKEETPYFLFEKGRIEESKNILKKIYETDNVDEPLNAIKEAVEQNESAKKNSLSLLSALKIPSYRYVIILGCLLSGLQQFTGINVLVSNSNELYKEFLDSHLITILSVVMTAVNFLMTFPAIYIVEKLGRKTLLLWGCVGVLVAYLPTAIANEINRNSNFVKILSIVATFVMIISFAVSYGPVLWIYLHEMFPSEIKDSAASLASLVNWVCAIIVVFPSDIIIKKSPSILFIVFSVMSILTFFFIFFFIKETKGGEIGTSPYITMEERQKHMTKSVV
UniProt O61059, 1-567: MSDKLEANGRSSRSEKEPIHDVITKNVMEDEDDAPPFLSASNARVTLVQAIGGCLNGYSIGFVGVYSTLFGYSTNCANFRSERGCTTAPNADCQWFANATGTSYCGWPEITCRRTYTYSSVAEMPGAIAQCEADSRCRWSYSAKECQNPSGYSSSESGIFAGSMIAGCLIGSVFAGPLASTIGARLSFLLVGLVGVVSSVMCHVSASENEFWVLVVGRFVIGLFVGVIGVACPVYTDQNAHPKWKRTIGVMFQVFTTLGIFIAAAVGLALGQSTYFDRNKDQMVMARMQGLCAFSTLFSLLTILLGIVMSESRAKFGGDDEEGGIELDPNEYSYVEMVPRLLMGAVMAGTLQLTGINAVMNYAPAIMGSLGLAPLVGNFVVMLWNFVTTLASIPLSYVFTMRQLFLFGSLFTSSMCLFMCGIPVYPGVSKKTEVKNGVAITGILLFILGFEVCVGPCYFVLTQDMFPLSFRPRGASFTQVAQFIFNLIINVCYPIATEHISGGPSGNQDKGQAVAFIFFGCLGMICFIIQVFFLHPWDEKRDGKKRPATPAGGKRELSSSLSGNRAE

Assay [2] addresses Hexose transporter 1 (Plasmodium falciparum) (UniProt O97467). As to the kind of experiment: ST_JUDE_LEISH: Cytotoxicity at 2uM final concentration against transgenic Leishmania Mexicana promastigotes LmPfHT that are glucose transport deficient and complemented with the Plasmodium falciparum hexose transporter. Activity is measured by DNA content using SYBR green in vitro.
The target of assay [3] is Glucose transporter (Leishmania mexicana) (UniProt O61059). As to the kind of experiment: ST_JUDE_LEISH: Cytotoxicity at 2uM final concentration against transgenic Leishmania Mexicana promastigotes LmGT2 that are glucose transport deficient and complemented with the L. Mexicana glucose transporter 2. Activity is measured by DNA content using SYBR green in vitro.

The entries are a selection whose mix differs from that of the whole data set.

In general, inhibition refers to the relative decrease from the control value, in per cent. Take `Cn1c(=O)n(C2CCN(CCCC(c3ccc(F)cc3)c3ccc(F)cc3)CC2)c2ccccc21`: the inhibition in assay [1] was found to be 13.5%; in assay [2], 15.1%; in assay [3], 12.8%.

As to `CC(C)(C)c1cc2cc(N(C(=O)c3ccc(C(F)(F)F)cc3)C3CCN(Cc4ccccc4)CC3)ccc2[nH]1`, the figures for the inhibition in assay [1], in assay [2] and in assay [3] were 1.61%, 0.39% and -0.65%, respectively.

Values taken from ChEMBL document CHEMBL3433997, “St. Jude Leishmania screening dataset” (2016).
